Laboratory results: ChEMBL document CHEMBL3045895 (Med Chem Res, 2012)
Active and inactive are the calls of the source. The rule behind the calls is not given here.

Molecular target: T1, cAMP-specific 3',5'-cyclic phosphodiesterase 4B (Crotalus adamanteus) (UniProt J3SE37)
T1 sequence (whole entry): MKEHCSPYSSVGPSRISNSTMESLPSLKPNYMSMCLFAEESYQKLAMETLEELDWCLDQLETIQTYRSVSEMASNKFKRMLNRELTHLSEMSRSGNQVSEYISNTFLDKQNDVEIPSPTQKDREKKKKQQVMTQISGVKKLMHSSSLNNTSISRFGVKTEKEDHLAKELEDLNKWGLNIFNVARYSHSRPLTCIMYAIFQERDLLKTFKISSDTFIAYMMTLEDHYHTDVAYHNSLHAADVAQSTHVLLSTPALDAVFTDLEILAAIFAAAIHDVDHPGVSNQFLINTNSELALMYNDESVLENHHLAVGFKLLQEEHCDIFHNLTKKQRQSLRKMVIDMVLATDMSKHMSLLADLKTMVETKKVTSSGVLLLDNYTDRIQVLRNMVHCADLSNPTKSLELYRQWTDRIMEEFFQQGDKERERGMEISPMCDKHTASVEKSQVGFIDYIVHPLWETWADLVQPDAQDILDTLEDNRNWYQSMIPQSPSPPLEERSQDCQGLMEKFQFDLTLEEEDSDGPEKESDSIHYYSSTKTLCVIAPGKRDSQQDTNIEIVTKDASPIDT
Assay: Inhibition of Serpentes (snake) phosphodiesterase using bis(p-nitrophenyl)phosphate as substrate at 500 uM incubated for 30 min prior to substrate addition by spectrophotometric analysis

Row | SMILES | inhibition
1 | Cc1cc(C)n(CO)n1 | inactive
2 | Cc1cc(CN(CCO)Cc2cc(C)n(C)n2)nn1C | inactive
3 | Cc1cc(C)n(CN(CCO)Cn2nc(C)cc2C)n1 | inactive
4 | Cc1cc(C)n(CN(Cn2nc(C)cc2C)C2CCCCC2)n1 | inactive
